Patent US4239708A, “P-Phenylene bis[imino(thiocarbonyl)] diphosphoramidic acid esters as anthelmentic agents” (dated 1980)

What was measured:
Aspicularis tetraptera = assay: Mouse/Helminth Evaluation, A. tetraptera; settings: mice, absence or presence of parasites is criterion
Hymenolepis nana = assay: Mouse/Helminth Evaluation, H. nana; settings: mice, absence or presence of parasites is criterion
Nematospiroides dubius = assay: Mouse/Helminth Evaluation, N. dubius; settings: mice
Haemonchus contortus = assay: Efficacy test in sheep, H. contortus; settings: oral dose 50 mg/kg
[1] = test system: Trichostrongylus colubriformis; assay: Control of adult Trichostrongylus colubriformis in rabbits; settings: single oral dose 50 mg/kg
[2] = test system: Trichostrongylus colubriformis; assay: Efficacy test in sheep, T. colubriformis; settings: oral dose 50 mg/kg
Ostertagia circumcincta = assay: Efficacy test in sheep, O. circumcincta; settings: oral dose 50 mg/kg
Strongyloides ransomi = assay: Efficacy for the control of Strongyloides ransomi infections in pigs; settings: SOD 50 mg/kg

Row | Structure (SMILES) | activity against A. tetraptera (Aspicularis tetraptera; 0.05% in diet for 7 days) | activity against A. tetraptera (Aspicularis tetraptera; 50 mg/kg single oral dose) | activity against H. nana (Hymenolepis nana; 0.05% in diet for 7 days) | activity against H. nana (Hymenolepis nana; 50 mg/kg single oral dose) | activity against N. dubius (Nematospiroides dubius; 0.05% in diet for 7 days) | activity against N. dubius (Nematospiroides dubius; 50 mg/kg single oral dose) | activity against H. nana (Hymenolepis nana; 0.025% in diet for 7 days) | activity against H. nana (Hymenolepis nana; 0.1% in diet for 7 days) | activity against N. dubius (Nematospiroides dubius; 0.025% in diet for 7 days) | activity against N. dubius (Nematospiroides dubius; 0.1% in diet for 7 days) | % Efficacy Against H. contortus (Haemonchus contortus) | % Efficacy [1] | % Efficacy Against T. colubriformis [2] | % Efficacy Against O. circumcineta (Ostertagia circumcincta) | Efficacy (Strongyloides ransomi) | Ave. No. of S. ransomi (Strongyloides ransomi; control 273)
1 | CCOP(=S)(NC(=O)Nc1ccccc1NC(=O)NP(=S)(OCC)OCC)OCC | Inactive | Inactive | Inactive | Inactive | Inactive | Inactive |  |  |  |  |  |  |  |  |  | 
2 | CCOP(=O)(NC(=S)Nc1ccc(NC(=S)NP(=O)(OCC)OCC)c(Br)c1)OCC | Inactive | Inactive | Active | Active | Inactive | Inactive |  |  |  |  |  |  |  |  |  | 
3 | CCOP(=O)(NC(=S)Nc1ccc(NC(=S)NP(=O)(OCC)OCC)c(C)c1C)OCC | Active | Active | Active | Inactive | Inactive | Inactive |  |  |  |  |  |  |  |  |  | 
4 | CCOP(=O)(NC(=S)Nc1cc(OC)c(NC(=S)NP(=O)(OCC)OCC)cc1C)OCC | Active | Active | Active | Inactive | Inactive | Inactive |  |  |  |  |  |  |  |  |  | 
5 | CCOP(=O)(NC(=S)Nc1ccc(NC(=S)NP(=O)(OCC)OCC)c(SC)c1)OCC | Active | Active | Active | Active | Inactive | Inactive |  |  |  |  |  |  |  |  |  | 
6 | CCOP(=O)(NC(=S)Nc1cc(Cl)c(NC(=S)NP(=O)(OCC)OCC)c(OC)c1)OCC | Active | Inactive | Inactive | Active | Inactive | Inactive |  |  |  |  |  |  |  |  |  | 
7 | CCOP(=O)(NC(=S)Nc1ccc(NC(=S)NP(=O)(OCC)OCC)c(C)c1)OCC | Active | Active | Active | Active | Inactive | Inactive |  |  |  |  |  |  |  |  |  | 
8 | CCOP(=O)(NC(=S)Nc1ccc(NC(=S)NP(=O)(OCC)OCC)c(OC)c1Cl)OCC | Active | Active | Active | Inactive | Inactive | Inactive |  |  |  |  |  |  |  |  |  | 
9 | CCOP(=O)(NC(=S)Nc1cc(C)c(NC(=S)NP(=O)(OCC)OCC)cc1C)OCC | Active | Active | Active | Active | Inactive | Inactive |  |  |  |  |  |  |  |  |  | 
10 | CCCSc1cc(NC(=S)NP(=O)(OCC)OCC)c(Cl)cc1NC(=S)NP(=O)(OCC)OCC | Active | Inactive | Active | Inactive | Inactive | Inactive |  |  |  |  |  |  |  |  |  | 
11 | CCOP(=O)(NC(=S)Nc1ccc(NC(=S)NP(=O)(OCC)OCC)c(SCc2ccccc2)c1)OCC | Active |  | Active | Inactive | Inactive | Inactive |  |  |  |  |  |  |  |  |  | 
12 | COc1cc(NC(=S)NP(=O)(OC(C)C)OC(C)C)ccc1NC(=S)NP(=O)(OC(C)C)OC(C)C | Active | Inactive | Active | Active | Inactive | Inactive |  |  |  |  |  |  |  |  |  | 
13 | CCOP(=O)(NC(=S)Nc1ccc(NC(=S)NP(=O)(OCC)SCC)c(OC)c1)SCC (stereo not shown) |  |  | Inactive |  | Inactive |  | Inactive | Inactive | Inactive | Inactive |  |  |  |  |  | 
14 | CCOP(=O)(NC(=S)Nc1cc(Cl)c(NC(=S)NP(=O)(OCC)OCC)cc1C)OCC | Active |  | Active | Inactive | Inactive | Inactive |  |  |  |  |  |  |  |  |  | 
15 | CCOP(=O)(NC(=S)Nc1ccc(NC(=S)NP(=O)(OCC)OCC)c(Oc2ccccc2)c1)OCC | Active | Active | Active | Active | Inactive | Inactive |  |  |  |  |  |  |  |  |  | 
16 | CCOP(=O)(NC(=S)Nc1cc(Sc2ccccc2)c(NC(=S)NP(=O)(OCC)OCC)cc1Cl)OCC | Active | Inactive | Active | Inactive | Inactive | Inactive |  |  |  |  |  |  |  |  |  | 
17 | CCOP(=O)(NC(=S)Nc1cc(Cl)c(NC(=S)NP(=O)(OCC)OCC)cc1Cl)OCC | Active | Active | Active | Inactive | Inactive | Inactive |  |  |  |  |  |  |  |  |  | 
18 | CCOP(=O)(NC(=O)Nc1ccccc1NC(=O)NP(=O)(OCC)OCC)OCC | Inactive | Inactive | Inactive | Inactive | Inactive | Inactive |  |  |  |  |  |  |  |  |  | 
19 | CCOP(=O)(NC(=S)Nc1ccccc1NC(=O)NP(=S)(OCC)OCC)OCC | Active | Inactive | Inactive | Inactive | Inactive | Inactive |  |  |  |  |  |  |  |  |  | 
20 | CCOP(=O)(NC(=S)Nc1ccc(NC(=S)NP(=O)(OCC)OCC)c(I)c1)OCC | Active | Inactive | Active | Active | Inactive | Inactive |  |  |  |  |  |  |  |  |  | 
21 | CCOP(=O)(NC(=S)Nc1ccc(NC(=S)NP(=O)(OCC)OCC)c(Cl)c1Cl)OCC | Active | Active | Active | Inactive | Inactive | Inactive |  |  |  |  |  |  |  |  |  | 
22 | CCOP(=O)(NC(=S)Nc1ccccc1NC(=O)NS(=O)(=O)c1ccc(C)cc1)OCC |  |  |  |  |  |  |  |  |  |  | 97.8% | 0% | 48.2% | 44.2% |  | 
23 | CCCSc1cc(NC(=S)NP(=O)(OCC)OCC)c(C)cc1NC(=S)NP(=O)(OCC)OCC | Active | Active | Active | Inactive | Inactive | Inactive |  |  |  |  |  |  |  |  |  | 
24 | CCOP(=O)(NC(=S)Nc1ccc(NC(=S)NP(=O)(OCC)OCC)cc1)OCC |  |  |  |  |  |  |  |  |  |  | 100% |  | 94% | 99.5% | 35% | 176
25 | CCCSc1c(NC(=S)NP(=O)(OCC)OCC)ccc(NC(=S)NP(=O)(OCC)OCC)c1Cl | Active | Active | Active | Inactive | Inactive | Inactive |  |  |  |  |  |  |  |  |  | 
26 | CCOP(=O)(NC(=S)Nc1cc(C)c(NC(=S)NP(=O)(OCC)OCC)c(Cl)c1)OCC | Active | Active | Active | Active | Inactive | Inactive |  |  |  |  |  |  |  |  |  | 
27 | CC(C)OP(=O)(NC(=S)Nc1ccc(NC(=S)NP(=O)(OC(C)C)OC(C)C)c(Cl)c1)OC(C)C | Active | Active | Active | Active | Inactive | Inactive |  |  |  |  |  |  |  |  |  | 
28 | CCOP(=O)(NC(=S)Nc1ccc(NC(=S)NP(=O)(OCC)OCC)c(C(F)(F)F)c1)OCC | Active | Active | Active | Inactive | Inactive | Inactive |  |  |  |  |  |  |  |  |  | 
